# According to patent publication US12023336B2, “Antiviral drug compounds and composition thereof” (priority 2018, dated 2024):
# Tested on: HIV-1NL4.3
# Settings: CEM-GFP cells
substance,measurement,value
MTX-d3 heptaglutamate,TI (Therapeutic index = CC50/IC50),519.97
